Experimental findings from article PMC5007486, “Thermodynamic instability of viral proteins is a pathogen-associated molecular pattern targeted by human defensins” (Scientific Reports, 2016) are described below.

This assay deals with HIV-1 Gag-Δp6.

Where no end group is shown, it is not given here.

Take “hBD-1: human β-defensin hBD-1, prepared by solid-phase peptide synthesis (DHYNCVSSGGQCLYSACPIFTKIQGTCYRGKAKCCK; ends and bridges not checked; cysteine pairing not given here; UniProt P60022 33-68, looked up)”: the “Effect on thermal melting of HIV-1 Gag-Δp6, reducing conditions” value was “had no effect on thermal melting”. Also, where the note is “pH 7.5”, the “Effect on melting profile of HIV-1 Gag-Δp6, no salt” value is given as “no significant changes in melting profiles”.
